Results of unrelated studies side by side (data: NIAID ChemDB).

All rows: host cell toxicity; cells: VERO; measure: CC50

Conditions beyond the fields shown may differ between rows.

compound | method | value
Cc1ccc(NCCNCCO)c2c(=O)c3ccccc3sc12 |  | 5.69 µg/mL
Cn1cc(C(N)=O)c(=O)c2ccc(-c3ccncc3)cc21 |  | >25 µg/mL
COc1ccccc1NC(=O)NC1N=C(c2ccccc2)c2ccccc2NC1=O |  | 1 µM
O=[N+]([O-])Cc1cnc2nncn2n1 |  | 5.5 µg/mL
COc1cccc(C(=O)NC2N=C(c3ccccc3)c3ccccc3NC2=O)c1 |  | 2 µM
NC(=O)c1cn(-c2ccc(Br)cc2)c2cc(-c3ccncc3)ccc2c1=O |  | >12.5 µg/mL
CO[C@@]12[C@H](COC(=O)NCCO)C3=C(C(=O)C(C)=C(N)C3=O)N1C[C@H]1[C@@H]2N1C |  | >500 µg/mL
CCCC(=O)NC1N=C(c2ccccc2)c2ccccc2NC1=O |  | 5 µM
NC(=O)c1cn(-c2ccc(Cl)cc2)c2cc(-c3ccncc3)ccc2c1=O |  | >25 µg/mL
O=C(Nc1nc(-c2ccccn2)cs1)C1CCCCC1 | luminescence | 39 µM
O=C(Nc1ccc(Cl)cc1)NC1N=C(c2ccccc2)c2ccccc2NC1=O |  | 3 µM
Cl.Cl.O=C(Nc1cccc(C(=O)Nc2ccc(C3=NCCN3)cc2)c1)c1ccc(C2=NCCN2)cc1 |  | >50 µg/mL
FC(F)(F)c1ccccc1Nc1nc(C23CC4CC(CC(C4)C2)C3)cs1 | luminescence | 39 µM
CCn1c(=O)c(C(N)=O)c(O)c2ccc(-c3ccncc3)cc21 |  | >6.25 µg/mL
Cc1cccc(C)c1Nc1nnc(-c2ccccn2)o1 | luminescence | >100 µM
Cc1cc(-c2ccc3c(=O)c(C(N)=O)cn(-c4ccc(F)cc4)c3c2)sn1 |  | >100 µg/mL
Cl.Cl.Cl.FC(F)(F)c1ccc2c(c1)N(CCCN1CCN(CCN3CCCCC3)CC1)c1ccccc1S2 |  | 2.02 µg/mL
O=C(Nc1nc(-c2ccccn2)cs1)c1ccc([N+](=O)[O-])cc1 | luminescence | 3 µM
CCOC(=O)C1=C(C(=O)c2ccccc2)C(c2ccc([N+](=O)[O-])cc2)C(C(=O)c2ccccc2)=C(C(=O)OCC)N1 |  | 22.7 µg/mL
FC(F)(F)c1ccccc1Nc1nc(-c2ccccc2S)cs1 | luminescence | 13 µM
Cc1c2ccncc2cc2c1sc1ccncc12 |  | >10 µg/mL
C=CCn1cc(C(N)=O)c(=O)c2ccc(-c3ccncc3)cc21 |  | >6.25 µg/mL

For reference, 3 entries again:

compound,method,value
CCOC(=O)C1=C(C(=O)c2ccccc2)C(c2ccc([N+](=O)[O-])cc2)C(C(=O)c2ccccc2)=C(C(=O)OCC)N1,,22.7 µg/mL
Cl.Cl.O=C(Nc1cccc(C(=O)Nc2ccc(C3=NCCN3)cc2)c1)c1ccc(C2=NCCN2)cc1,,>50 µg/mL
COc1cccc(C(=O)NC2N=C(c3ccccc3)c3ccccc3NC2=O)c1,,2 µM

Blank or dashed fields: not listed here. CCn is the concentration with n% toxicity to the cells.